{"source": "paper PMC9163697", "about": "“Mechanistic insights into the activation of the IKK kinase complex by the Kaposi’s sarcoma herpes virus oncoprotein vFLIP” (The Journal of Biological Chemistry, 2022)", "biological_target": "the molecule itself", "assay": "SEC-MALS; WT vFLIP or mutants alone, 0.5 mg/ml, Superdex 200 10/300 GL, 25 mM Tris-HCl pH 8.5, 200 mM NaCl, 1 mM DTT"}
{"protein": "R12E vFLIP mutant (domain or fragment, vFLIP of KSHV with R12E; PDB […] holds the parent; source: E. coli, purified following the protocol for WT vFLIP) not shown", "values": [{"measurement": "stoichiometry N", "result": 2}]}
